# Values from PubChem BioAssay AID504761 (Drosophila RNAi Screening Center, 2011)
# Purpose: 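Fly genes whose silencing reduces dengue virus type 2 infection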 (primary screen)
# Cell system: D.Mel-2 cells from Drosophila
# Reagents: long dsRNA against Drosophila genes
# Conditions: infection with dengue virus type 2; dose and infection time not stated
# Read-out: 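Cells stained for dengue envelope protein and imaged; percent of infected cells per well on duplicate plates, ranked by infection, with stained nuclei counted for cell number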
# Direction: infection score: higher = more virus-infected cells; cell count: higher = more cells in the well
# Active means: 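Very low infection ranking in both replicate wells (chance probability at most 0.065), then a retest showing infection dropped 1.5-fold or more at p below 0.05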
# Meaning of the calls: active = confirmed: knock-down lowers infection; inactive = not picked or not confirmed
# The deposit covers about 22,000 reagents; shown is an unselected part of those that have a named target and a result. In the full data, 116 (0.52%) are marked active. 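Calls depend on retest data that are not deposited; infection was ranked per plate without normalising between plates; the unit of the infection score is not given.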 The raw values are shown without normalisation. Reagents against one gene are numbered here. Names joined by + are all predicted targets of the reagent. Not stated in the record: the amount of reagent, the time to read-out.
Gene,dsRNA no.,"infection score, replicate 1","infection score, replicate 2","cell count, replicate 1","cell count, replicate 2",activity call
aust (GeneID 34244),1,4.73,4.76,6151,6512,inactive
aust (GeneID 34244),2,7.2,2.72,6518,6313,inactive
CG13716 (GeneID 38567),1,14.7,12.7,6032,5943,inactive
CG13716 (GeneID 38567),2,2.21,8.26,6115,6371,inactive
CG13733 (GeneID 39951),1,7.26,4.24,5714,5490,inactive
Tbp (GeneID 37476),1,2.77,1.44,6357,6581,inactive
BomS3 (GeneID 50209),1,0.33,19.5,5974,6426,inactive
BomS3 (GeneID 50209),2,6.75,10.6,993,3209,inactive
CG4607 (GeneID 31653),1,0.59,1.59,6639,6465,inactive
CG4194 (GeneID 31173),1,6.11,1.76,6158,6180,inactive
CG15456 (GeneID 50123),1,5.07,3.45,6010,5707,inactive
CG13793 (GeneID 34047),1,5.34,3.78,6536,5950,inactive
CG13793 (GeneID 34047),2,13.6,10.7,6526,3832,inactive
MetRS-m (GeneID 41733),1,15.1,9.03,6526,6679,inactive
MetRS-m (GeneID 41733),2,5.36,2.93,6434,6926,inactive
ScsbetaG (GeneID 44001),1,3.46,4.01,5751,5456,inactive
ScsbetaG (GeneID 44001),2,2.6,0.61,6317,5910,inactive
CG3698 (GeneID 40298),1,2.86,25.2,6739,6000,inactive
CG3698 (GeneID 40298),2,0.41,4.78,6658,6145,inactive
CG13893 (GeneID 38074),1,0.72,3.02,6401,6149,inactive
CG14780 (GeneID 31102),1,4.66,5.15,6679,5980,inactive
pcx (GeneID 31204),1,6.39,1.34,2034,6643,inactive
pcx (GeneID 31204),2,10.7,1.88,6137,6585,inactive
pcx (GeneID 31204),3,4.86,2.45,6332,6738,inactive
pcx (GeneID 31204),4,7.6,2.41,6656,6311,inactive
pcx (GeneID 31204),5,1.29,4.85,6507,6099,inactive
pcx (GeneID 31204),6,4.29,1.86,6298,6127,inactive
tun (GeneID 36743),1,2.38,2.31,6314,6027,inactive
tun (GeneID 36743),2,16.7,14.6,5569,6587,inactive

Records listed so far whose target name begins with B or b:
Gene,dsRNA no.,"infection score, replicate 1","infection score, replicate 2","cell count, replicate 1","cell count, replicate 2",activity call
BomS3 (GeneID 50209),1,0.33,19.5,5974,6426,inactive
BomS3 (GeneID 50209),2,6.75,10.6,993,3209,inactive

The results go on.
Gene,dsRNA no.,"infection score, replicate 1","infection score, replicate 2","cell count, replicate 1","cell count, replicate 2",activity call
Eato (GeneID 34783),1,31,44.3,5697,5343,inactive
Eato (GeneID 34783),2,2.47,1.71,6691,6906,inactive
Trmt6 (GeneID 33920),1,11.2,8.12,5798,6477,inactive
CG14113 (GeneID 50287),1,1.39,2.12,6248,6566,inactive
CG12133 (GeneID 36036),1,6.39,9.55,6715,6316,inactive
CG12133 (GeneID 36036),2,11.8,16,6492,6491,inactive
CG32182 (GeneID 317898),1,0.18,0.06,6233,6994,active
CG32182 (GeneID 317898),2,4.82,3.99,6303,6513,inactive
MED30 (GeneID 38078),1,5,21.2,6739,7180,inactive
MED30 (GeneID 38078),2,47.3,7.96,4104,5565,inactive
Coa8 (GeneID 31148),1,,21.6,430,5005,inactive
CG18128 (GeneID 37756),1,8.28,8.6,6458,7161,inactive
CG33494 (GeneID 2768686),1,3.02,2.26,5930,5608,inactive
CG17344 (GeneID 35185),1,6.7,5.42,6181,6718,inactive
CG1774 (GeneID 43722),1,1.16,1.12,5768,6586,inactive
CG1824 (GeneID 32208),1,5.33,4.1,5740,6079,inactive
CycD (GeneID 32551),1,2.38,24,4657,5170,inactive
CycD (GeneID 32551),2,4.7,2.55,5899,5761,inactive
CG17230 (GeneID 41376),1,23.7,12,4834,5841,inactive
CG17230 (GeneID 41376),2,5.37,7.93,6053,3214,inactive
CG8159 (GeneID 41040),1,0.91,18,6402,5436,inactive
CG8159 (GeneID 41040),2,12.9,14.2,6516,7009,inactive
CG15711 (GeneID 36834),1,30.3,5.97,6381,6010,inactive
CG11294 (GeneID 31807),1,8.72,11.1,5884,5322,inactive
CG11294 (GeneID 31807),2,1.72,20.9,6396,6266,inactive
p53 (GeneID 2768677),1,4.31,13.7,6489,6677,inactive
hyx (GeneID 41086),1,23.1,37,2199,2265,inactive
CG31917 + Tfb5,1,3.6,4.91,6281,6394,inactive
CG31917 + Tfb5,2,0.72,2.35,5954,6182,inactive
